## Mutational tolerance of the Zika virus NS2B-NS3 protease

Source: Ni et al. 2025 (doi:10.1038/s41467-025-63602-z), supplementary data.

The scanned region of Zika virus MR766 is shown below (positions 1-308): NS2B is 2-131, NS3 begins at position 132.
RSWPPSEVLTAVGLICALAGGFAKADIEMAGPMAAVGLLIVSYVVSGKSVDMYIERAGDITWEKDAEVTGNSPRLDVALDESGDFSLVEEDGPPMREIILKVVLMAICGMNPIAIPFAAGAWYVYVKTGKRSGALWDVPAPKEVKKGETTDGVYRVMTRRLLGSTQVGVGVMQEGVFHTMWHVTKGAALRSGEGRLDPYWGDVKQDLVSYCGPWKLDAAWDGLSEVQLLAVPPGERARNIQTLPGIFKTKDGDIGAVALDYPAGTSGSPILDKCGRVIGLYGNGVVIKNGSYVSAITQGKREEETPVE

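Pools of virus carrying all single amino acid changes were selected for growth in Huh-7.5 cells. The effect is the change in frequency of a mutant, normalised to wild type, as a mean of three replicate libraries (two for positions 207-308). The aim was to find sites where inhibitor-binding pockets cannot change.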

Scale: log2 effect, wild type = 0; the lower, the more harmful to the virus.
Each line gives the wild-type residue and site, then new residues with their values.
An asterisk is a stop codon; stop codons read about -7, near the floor of the assay.
The region was split into three libraries (1-103, 104-206, 207-308).
Position 1 still belongs to NS2A. In the paper, -1 or higher counts as tolerated.
Values above 0 are not proof of better growth: six high scorers were tested one by one, five grew less well than wild type and one about as well.

R236: * -6.97; A 1.52; C 2.10; D 0.47; E 0.34; F 0.47; G 0.93; H 1.58; I 0.95; K 1.19; L 1.28; M 0.77; N 1.95; P 1.15; Q 1.12; S 1.02; T 1.63; V 1.23; W -1.77; Y 1.45
A237: * -5.86; C 0.87; D -4.59; E -3.57; F -1.21; G -1.42; H -0.62; I -0.52; K 0.24; L -0.53; M -0.92; N -1.71; P 1.54; Q 0.59; R -2.38; S -0.55; T 1.18; V -1.40; W -4.08; Y -0.39
R238: * -7.51; A -0.83; C 1.55; D -5.39; E 1.22; F 1.11; G -1.05; H -0.06; I 2.21; K 2.02; L 2.03; M 0.96; N 0.06; P -6.28; Q 1.52; S 0.87; T 1.95; V 2.06; W -5.54; Y -2.84
N239: * -7.16; A -3.70; C -2.33; D -5.39; E -5.60; F -5.79; G -3.94; H -2.10; I -5.85; K -5.86; L -7.06; M -5.48; P -6.66; Q -5.45; R -6.74; S -1.32; T -7.06; V -6.27; W -5.37; Y -5.16
I240: * -8.22; A -0.68; C -1.26; D -6.26; E -5.57; F -6.90; G -6.70; H -6.25; K -5.31; L -2.76; M -1.55; N -6.75; P -6.90; Q -6.09; R -7.44; S -3.23; T 1.09; V 0.94; W -5.44; Y -6.87
Q241: * -8.36; A -4.38; C -4.63; D -5.85; E -1.82; F -5.52; G -5.60; H -7.11; I -5.95; K -7.37; L -7.83; M -4.82; N -6.17; P -7.88; R -6.59; S -5.58; T -7.64; V -6.88; W -6.10; Y -5.99
T242: * -7.69; A -5.03; C -5.22; D -5.50; E -4.98; F -4.49; G -6.53; H -5.27; I -5.51; K -6.03; L -6.93; M -5.88; N -5.67; P -6.50; Q -5.55; R -7.12; S -6.97; V -6.30; W -5.35; Y -5.22
L243: * -7.68; A -1.81; C -1.15; D -4.31; E -5.43; F -1.09; G -5.58; H -1.71; I -0.57; K -2.59; M -1.72; N -2.61; P -6.72; Q -0.68; R -2.61; S -2.49; T -0.35; V -1.94; W -4.59; Y -0.76
P244: * -6.57; A -5.40; C -4.24; D -4.92; E -4.55; F -4.41; G -5.41; H -5.77; I -4.73; K -4.78; L -5.41; M -4.33; N -4.28; Q -4.95; R -6.15; S -4.16; T -6.16; V -5.31; W -4.30; Y -4.48
G245: * -8.00; A -6.46; C -5.47; D -5.24; E -5.60; F -5.61; H -5.18; I -5.24; K -5.95; L -6.93; M -5.47; N -5.37; P -5.95; Q -5.11; R -6.76; S -6.85; T -6.57; V -6.91; W -5.63; Y -5.18